Anti-infective test results gathered from many reports (values: NIAID ChemDB through PubChem).

Common to all: growth or infection tests; species: Mycobacterium tuberculosis

ECn: concentration that inhibits the pathogen or its effect by n%. Blank or dashed fields: not listed here. MIC50, MIC90 and the like: level of inhibition, or share of isolates inhibited. Inhibition is in % at the dose shown (toxicity tests: loss of growth or viability). Neighbouring rows are from separate reports. MIC bound: limit read from a one-dose screen.

structure	mutations	read-out	setting	cells	dose	strain	method	result
NNCc1c(C(=O)O)oc2ccccc12	-	MIC	-	VERO	-	H37Rv	BACTEC	12.5 µg/mL
CC(C)[C@H](NC(=O)OCc1ccccc1)c1cnc(-c2ccc([N+](=O)[O-])cc2)[nH]1	-	MIC	14 d	-	-	My 331/88	-	16 µM
Cn1cc(NC(=O)Nc2cc(C(=O)Nc3cc(C(=O)Nc4cc(S(=O)(=O)O)c5cc(S(=O)(=O)O)cc(S(=O)(=O)O)c5c4)n(C)c3)n(C)c2)cc1C(=O)Nc1cc(C(=O)Nc2cc(S(=O)(=O)O)c3cc(S(=O)(=O)O)cc(S(=O)(=O)O)c3c2)n(C)c1	-	MIC bound	-	-	-	H37Rv	BACTEC	>12.5 µg/mL
NC(=S)N(Cc1cc2ccccc2nc1Cl)c1ccccc1	-	MIC	-	-	-	H37Ra	-	200 µg/mL
Cc1ccc(/C=N/N=c2/scc(-c3cc4cc(Br)ccc4oc3=O)n2C2CCCCC2)cc1	-	inhibition	-	-	6.25 µg/mL	H37Rv	-	5%
Fc1ccc2nc(CCc3cc(Cl)cc(Cl)c3)[nH]c2c1	-	MIC	-	-	-	Isolate 192	broth dilution	>100 µg/mL
O=c1oc2ccc(Br)cc2cc1-c1cs/c(=N/N=C/c2ccc(Br)cc2)n1C1CCCCC1	-	MIC	-	-	-	H37Rv	-	>6.25 µg/mL
CC[C@H](C)[C@H]1OC(=O)[C@H](C(C)C)N(C)C(=O)[C@@H]([C@@H](C)CC)OC(=O)[C@H](C(C)C)N(C)C(=O)[C@@H]([C@@H](C)CC)OC(=O)[C@H](C(C)C)NC1=O	-	MIC	-	-	-	H37Ra	resazurin	1.07 µM
O=c1oc2ccccc2cc1-c1cs/c(=N\N=C\c2ccccc2[N+](=O)[O-])n1C1CCCCC1	-	EC50	-	-	-	H37Rv	-	>12.5 µg/mL
Cc1cc(C(=O)N=Nc2c(O)[nH]c3ccc(Br)cc23)n[nH]1	-	MIC50	-	-	-	H37Rv	resazurin	>50 µg/mL
CS(=O)(=O)N1COC(=O)C1c1ccccc1	-	inhibition	-	-	12.5 µg/mL	H37Rv	BACTEC	5%
COC(=O)c1ccc(N2C(=O)c3cccc([N+](=O)[O-])c3C2=O)cc1O	-	MIC50	-	-	-	H37Ra	resazurin	>50 µg/mL
O=C(O)c1ccncc1	-	MIC	-	-	-	H37Rv	resazurin	>25 µg/mL
Cc1ccc2oc(=O)n(-c3ccc(C#N)cc3)c(=O)c2c1	-	MIC	-	-	-	CNCTC MY331/88	-	16 µM
CN1c2ccccc2CCC1CCc1ccc2c(c1)OCO2	-	MIC	-	-	-	MT3	-	>339 µg/mL
COc1ccc(/C=C/C(=O)OC2CC34CCNC5C(OC(OC)(C2OC)C53)c2ccc(OC)c(O)c24)cc1O	-	MIC bound	-	-	-	H37Rv	BACTEC	>12.5 µg/mL
CN[C@@H]1[C@H](O[C@H]2[C@H](O[C@H]3[C@H](O)[C@@H](O)[C@H](N=C(N)N)[C@@H](O)[C@@H]3N=C(N)N)O[C@@H](C)[C@]2(O)C=O)O[C@@H](CO)[C@H](O)[C@H]1O	-	MIC	-	-	-	Clinical isolate 2	-	50 µg/mL
CO[C@H]1/C=C/O[C@@]2(C)Oc3c(C)c(O)c4c(O)c(c(N5CCN(Cc6c(C)cc(C)cc6C)CC5)c(O)c4c3C2=O)NC(=O)/C(C)=C\C=C\[C@H](C)[C@H](O)[C@@H](C)[C@@H](O)[C@@H](C)[C@H](OC(C)=O)[C@@H]1C	-	MIC	-	-	-	H37Rv	-	0.03 µg/mL
CC(C)(CNC(=O)C12CC3CC(CC(C3)C1)C2)NC(=O)C12CC3CC(CC(C3)C1)C2	-	inhibition	-	-	6.25 µg/mL	H37Rv	resazurin	26%
COc1ccc2c(=O)n(-c3ccc(F)cc3)c(=O)oc2c1	-	MIC	-	-	-	CNCTC MY331/88	-	32 µM
CC(C)N=c1cc2n(-c3ccc(Cl)cc3)c3ccccc3nc-2cc1Nc1ccc(Cl)cc1	-	MIC90	-	-	-	H37Rv	fluorescence	0.14 µg/mL
NNC(=O)c1ccncc1	-	MIC	-	-	-	Clinical isolate 8	-	5 µg/mL
Clc1ccc(NCc2cc3ccccc3nc2Cl)cc1	-	MIC	-	-	-	H37Ra	-	>400 µg/mL
COc1c(N2CCNC(C)C2)c(F)cc2c(=O)c(C(=O)O)cn(C3CC3)c12	-	MIC50	-	-	-	5 isolates drug-resistant	-	0.031 µg/mL
CO[C@H]1/C=C/O[C@@]2(C)Oc3c(C)c(O)c4c(O)c5c(c(O)c4c3C2=O)CN=C(N5)/C(C)=C\C=C\[C@H](C)[C@H](O)[C@@H](C)[C@@H](O)[C@@H](C)[C@H](OC(C)=O)[C@@H]1C	-	MIC	-	-	-	234	-	>1 µg/mL
O=C(/C=C/c1ccc(O)c(O)c1)O[C@H]1[C@H](O)C[C@](O)(C(=O)O)C[C@H]1OC(=O)/C=C/c1ccc(O)c(O)c1	-	MIC bound	-	-	-	H37Rv	BACTEC	>12.5 µg/mL
O=[N+]([O-])c1cc(Cl)cc2[nH]c(CCc3ccccc3)nc12	-	MIC	-	-	-	Isolate 192	broth dilution	>100 µg/mL
CCOc1cc(/C=N/N=c2\scc(-c3cc4ccccc4oc3=O)n2CC)ccc1O	-	MIC	-	-	-	H37Rv	-	>12.5 µg/mL
CC(=O)c1cnc(NN)nc1C	-	MIC bound	-	-	-	H37Rv	BACTEC	>12.5 µg/mL
CNC(=S)N(Cc1cc2ccccc2nc1Cl)c1ccc(Cl)c(Cl)c1	-	MIC	-	-	-	H37Ra	-	50 µg/mL
O=C(N=Nc1c(O)[nH]c2ccc([N+](=O)[O-])cc12)c1cccc([N+](=O)[O-])c1	-	MIC50	-	-	-	H37Ra	resazurin	>50 µg/mL
COc1ccc(CCC2CCc3ccccc3N2C)cc1OC	-	MIC	-	-	-	MT7	-	25 µg/mL
CN(C)/N=C1\C(=O)N(CCCl)c2cc(Cl)c(Cl)cc21	-	MIC bound	-	-	-	H37Rv	BACTEC	>12.8 µg/mL
COc1ccc(NCc2cc3ccccc3nc2Cl)cc1	-	MIC	-	-	-	H37Ra	-	>400 µg/mL
Cc1ccc2oc(=O)n(-c3ccc([N+](=O)[O-])cc3)c(=O)c2c1	-	MIC	-	-	-	CNCTC MY331/88	-	4 µM
Clc1ccc(NCc2cc3ccccc3nc2Cl)cc1Cl	-	MIC	-	-	-	H37Ra	-	>400 µg/mL
COc1ccc(/C=N/N=c2/scc(-c3cc4ccccc4oc3=O)n2C2CCCCC2)cc1OC	-	MIC	-	-	-	H37Rv	-	>6.25 µg/mL
CO/N=C1\C(n2[nH]c(=O)n(-c3ccccc3)c2=O)C2C=CC1n1c(=O)n(-c3ccccc3)c(=O)n12	-	inhibition	-	-	6.25 µg/mL	H37Rv	resazurin	3%
S=C(Nc1ccccc1)Nc1ccc(-c2nnc(NCc3ccccc3)s2)cc1	-	EC50	-	-	-	H37Rv	-	>6.25 µg/mL
C[C@@H](NC(=O)OCc1ccccc1)c1cnc(-c2ccccc2)[nH]1	-	MIC	14 d	-	-	My 331/88	-	125 µM
O=[N+]([O-])c1cc(Cl)cc2[nH]c(/C=C/c3ccccc3)nc12	-	MIC	-	-	-	Isolate 192	broth dilution	>100 µg/mL
COc1ccc(CC2=NCCc3cc(OC)c(OC)cc32)cc1OC.O=C(O)C(=O)O	-	MIC	-	-	-	H37Rv	BACTEC	≥128 µg/mL
O=c1oc2ccc(Br)cc2cc1-c1cs/c(=N/N=C/c2ccc(F)cc2)n1C1CCCCC1	-	EC50	-	-	-	H37Rv	-	>6.25 µg/mL
CCCC(=O)OCc1cc(=O)n(C)c2c3c4c(cc12)c(C)cc(=O)n4CO3	-	inhibition	-	-	12.5 µg/mL	H37Rv	BACTEC	100%
Fc1ccc(NCc2cc3ccccc3nc2Cl)cc1Cl	-	MIC	-	-	-	H37Ra	-	>400 µg/mL
COc1ccc(C=NN2C(=O)c3ccccc3C2=O)cc1OC	-	MIC50	-	-	-	H37Ra	resazurin	>50 µg/mL
CCN(CC)C(=S)S[Se](SC(=S)N(CC)CC)(SC(=S)N(CC)CC)SC(=S)N(CC)CC	-	MIC	-	-	-	KM-R	-	0.8 µg/mL
Cc1ccc2oc(=O)n(-c3ccc(C(F)(F)F)cc3)c(=O)c2c1	-	MIC	-	-	-	CNCTC MY331/88	-	4 µM
Cc1nc(N)c(=O)[nH]c1C	-	MIC	-	-	-	H37Rv	BACTEC	≥12.5 µg/mL
O=C1c2ccccc2C(=O)N1N=Cc1cccc(O)c1O	-	MIC50	-	-	-	H37Rv	resazurin	>50 µg/mL
CC(=O)NC[C@H]1CN(c2ccc(N3CCOCC3)c(F)c2)C(=O)O1	-	MIC	-	-	-	3S	-	0.5 µg/mL
COC(=O)C1=CO[C@@H](C)[C@H]2CN3CCc4c([nH]c5ccccc45)[C@@H]3C[C@H]12	-	MIC	-	-	-	H37Rv	BACTEC	≥12.8 µg/mL
Cc1ccc(N2C(=O)c3cccc([N+](=O)[O-])c3C2=O)c(O)c1	-	MIC50	-	-	-	H37Ra	resazurin	>50 µg/mL
CCCC(O)CCC(O)=C1C(=O)CCC1=O	-	MIC bound	-	-	-	H37Rv	BACTEC	>12.5 µg/mL
C=C(C)[C@@H]1CC[C@]2(C(=O)O)CC[C@]3(C)C(=CCC4[C@@]5(C)C[C@@H](O)[C@H](O)C(C)(C)C5CC[C@]43C)C12	-	MIC	-	-	-	-	-	50 µg/mL
CO[C@H]1/C=C/O[C@@]2(C)Oc3c(C)c(O)c4c(O)c(c(/C=N/N5CCN(C)CC5)c(O)c4c3C2=O)NC(=O)/C(C)=C\C=C\[C@H](C)[C@H](O)[C@@H](C)[C@@H](O)[C@@H](C)[C@H](OC(C)=O)[C@@H]1C	Rifampicin-resistant rpoB H445N	MIC	-	-	-	-	fluorescence	0.33 µM
O=c1c2ccccc2oc2cc([N+](=O)[O-])cc([N+](=O)[O-])c12	-	MIC bound	-	-	-	H37Rv	BACTEC	≤12.5 µg/mL
O=[N+]([O-])c1cc(Cl)cc2[nH]c(CCc3cc(Cl)cc(Cl)c3)nc12	-	MIC	-	-	-	Isolate 192	broth dilution	>100 µg/mL
Cc1ccc(C(=O)N=Nc2c(O)[nH]c3ccccc23)cc1	-	MIC50	-	-	-	H37Ra	resazurin	>50 µg/mL
CC(C)C[C@H](NC(=O)OCc1ccccc1)c1cnc(-c2ccccc2)[nH]1	-	MIC	21 d	-	-	My 331/88	-	>250 µM
S=C(Nc1ccccc1)Nc1ccc(-c2nnc(Nc3ccc(Cl)cc3)s2)cc1	-	EC50	-	-	-	H37Rv	-	>6.25 µg/mL
O=C(N[C@@H](Cc1ccccc1)c1cnc(-c2ccccc2)[nH]1)OCc1ccccc1	-	MIC	14 d	-	-	My 331/88	-	500 µM
CCOc1cc(/C=N/N=c2\scc(-c3cc4cc(Br)ccc4oc3=O)n2CC)ccc1O	-	inhibition	-	-	12.5 µg/mL	H37Rv	-	86%
O=C(N1CCN(CCO)CC1)N1c2ccccc2Sc2ccccc21	-	MIC bound	-	-	-	H37Rv	resazurin	>6.25 µg/mL
C[C@H]1COc2c(N3CCN(C)CC3)c(F)cc3c(=O)c(C(=O)O)cn1c23	-	MIC	-	-	-	5S	-	0.5 µg/mL
CCN(CC)N(C(=O)c1cccc(C)c1)C(=O)c1cccc(C)c1	-	MIC bound	-	-	-	H37Rv	BACTEC	>12.5 µg/mL
C[C@H](NC(=O)OCc1ccccc1)c1cnc(-c2ccc([N+](=O)[O-])cc2)[nH]1	-	MIC	14 d	-	-	My 331/88	-	>125 µM
CNC(=S)N(Cc1cc2ccccc2nc1Cl)c1ccc(F)cc1	-	MIC	-	-	-	H37Ra	-	100 µg/mL
COc1cccc(C=NN2C(=O)c3ccccc3C2=O)c1O	-	MIC50	-	-	-	H37Rv	resazurin	>50 µg/mL
C=C(C)[C@@H]1CC[C@]2(C=O)CC[C@]3(C)[C@H](CC[C@@H]4[C@@]5(C)CC[C@H](O)C(C)(C)[C@@H]5CC[C@]43C)[C@@H]12	-	MIC	-	-	-	-	-	25 µg/mL
O=C(N[C@@H](Cc1ccccc1)c1cnc(-c2ccc([N+](=O)[O-])cc2)[nH]1)OCc1ccccc1	-	MIC	14 d	-	-	My 331/88	-	16 µM
CO[C@H]1/C=C/O[C@@]2(C)Oc3c(C)c(O)c4c(O)c(c(/C=N/N5CCN(C)CC5)c(O)c4c3C2=O)NC(=O)/C(C)=C\C=C\[C@H](C)[C@H](O)[C@@H](C)[C@@H](O)[C@@H](C)[C@H](OC(C)=O)[C@@H]1C	-	MIC	-	-	-	Clinical isolate 5	-	0.5 µg/mL
S=C(Nc1ccccc1)Nc1ccc(-c2nnc(NC3CCCCC3)s2)cc1	-	EC50	-	-	-	H37Rv	-	<6.25 µg/mL
C[C@]12CC[C@H]3[C@@H](CC[C@]4(O)C[C@@H](O)CC[C@]34C=O)[C@@]1(O)CC[C@@H]2C1=CC(=O)OC1	-	inhibition	-	-	12.5 µg/mL	H37Rv	BACTEC	2%
Cc1ccccc1Nc1nnc(-c2ccc(NC(=S)Nc3ccccc3)cc2)s1	-	EC50	-	-	-	H37Rv	-	>6.25 µg/mL
CCN(CC)CC(=O)N(CC)c1ccc(C)c(Cl)c1	-	MIC bound	-	-	-	H37Rv	BACTEC	>12.5 µg/mL
C=C(C)[C@@H]1CC[C@]2(C(=O)O)CC[C@]3(C)C(CCC4[C@@]5(C)[C@@H](C(=O)O)[C@H](O)C(C)(C)[C@@H]5CC[C@]43C)C12	-	MIC	-	-	-	-	-	>200 µg/mL